Pooled drug test results. Numbers come from NIAID ChemDB, via PubChem.

Shared fields: growth or infection tests; species: Measles virus; endpoint: EC50

Conditions beyond the fields shown may differ between rows. ECn: concentration that inhibits the pathogen or its effect by n%.

{"smiles": "[N-]=[N+]=N[C@H]1C[C@@H](n2cnc3c(N)ncnc32)[C@H](O)[C@@H]1O", "cell line": "CV-1", "read by": "cytopathic effect", "result": "0.1 µg/mL"}
{"smiles": "CCCc1cc(=O)oc2cc(OS(=O)(=O)c3ccc(C)cc3)cc(OS(=O)(=O)c3ccc(C)cc3)c12", "cell line": "CV-1", "read by": "cytopathic effect", "strain": "X-1108", "result": "6 µg/mL"}
{"smiles": "CSc1nsc(-c2cccs2)c1C#N", "cell line": "HEP-2", "read by": "plaque count", "strain": "Edmonston", "result": ">6 µM"}
{"smiles": "Nc1nc(=O)c2nc(-c3ccccc3)n([C@@H]3O[C@H](CO)[C@@H](O)[C@H]3O)c2c(=O)[nH]1", "cell line": "CV-1", "read by": "neutral red", "result": "0.5 µM"}
{"smiles": "S=c1cc(-c2ccccc2)s[nH]1", "cell line": "HEP-2", "read by": "plaque count", "strain": "Edmonston", "result": ">90 µM"}
{"smiles": "Nc1ncnc2c1ncn2[C@@H]1CC[C@@H](O)[C@H]1O", "cell line": "CV-1", "read by": "neutral red", "result": "<0.1 µg/mL"}
{"smiles": "CCCc1cc(=O)oc2cc(OS(=O)(=O)c3ccc(C)cc3)cc(O)c12", "cell line": "CV-1", "read by": "cytopathic effect", "strain": "CC", "result": "1 µg/mL"}
{"smiles": "Nc1ncnc2c1ncn2[C@@H]1C=C[C@@H](O)[C@H]1O", "cell line": "CV-1", "read by": "neutral red", "strain": "X-1108", "result": ">100 µg/mL"}
{"smiles": "CCCc1cc(=O)oc2c3c(c4c(c12)OC(C)(C)C=C4)O[C@H](C)[C@@H](C)[C@@H]3O", "cell line": "CV-1", "read by": "cytopathic effect", "strain": "Chicago-1", "result": ">100 µg/mL"}
{"smiles": "CNc1nc(=O)c2ncn([C@@H]3O[C@H](CO)[C@@H](O)[C@H]3O)c2c(=O)[nH]1", "cell line": "CV-1", "read by": "neutral red", "result": ">100 µM"}
{"smiles": "Cc1nsc(C)c1C#N", "cell line": "HEP-2", "read by": "plaque count", "strain": "Edmonston", "result": ">1000 µM"}
{"smiles": "CCCc1cc(=O)oc2c3c(c4c(c12)OC(C)(C)[C@H](O)[C@@H]4O)O[C@H](C)[C@@H](C)[C@@H]3O", "cell line": "CV-1", "read by": "cytopathic effect", "strain": "MO2", "result": "50 µg/mL"}
{"smiles": "CSc1nsc(-c2ccccc2)c1C#N", "cell line": "HEP-2", "read by": "plaque count", "strain": "Edmonston", "result": ">20 µM"}
{"smiles": "CCCc1cc(=O)oc2cc(OC(=O)C(C)(C)C)c3c(c12)OC(C)(C)C=C3", "cell line": "CV-1", "read by": "cytopathic effect", "strain": "MO6", "result": ">100 µg/mL"}
{"smiles": "Nc1ncnc2c1ncn2[C@H]1C[C@@H](S)[C@H](O)[C@@H]1O", "cell line": "CV-1", "read by": "cytopathic effect", "result": ">100 µg/mL"}
{"smiles": "CSc1nsc(-c2ccc3ccccc3c2)c1C#N", "cell line": "HEP-2", "read by": "plaque count", "strain": "Edmonston", "result": ">20 µM"}